Pooled drug test results. Numbers come from NIAID ChemDB, via PubChem.

Shared fields: tests on isolated targets; organism: HIV-1; target: Reverse transcriptase; read by: nucleotide incorporation; endpoint: IC50

Blank or dashed fields: not listed here.

structure | changes | value
CC1(C)C[C@H](O)[C@H](O)[C@]23C(=O)O[C@H](O)[C@H]2C(C=O)=CC[C@@H]13 | - | 140 µM
CC(C)Nc1cccnc1N(C)CCCN(C)C(=O)c1cc2ccccc2[nH]1 | - | <100 µM
Oc1cc(O)c2c(c1)O[C@H](c1ccc(O)c(O)c1)[C@H](O)C2c1c(O)cc(O)c2c1O[C@H](c1ccc(O)c(O)c1)[C@H](O)C2c1c(O)cc(O)c2c1O[C@@]1(c3ccc(O)c(O)c3)Oc3cc(O)c4c(c3[C@@H]2[C@H]1O)O[C@H](c1ccc(O)c(O)c1)[C@H](O)C4 | - | >20 µg/mL
CCN(C(C)=O)c1cccnc1N1CCN(C(=O)c2cc3ccccc3[nH]2)CC1 | - | >100 µM
O=C(NCCc1ccccc1)Nc1nc(-c2ccc(Br)cc2)cs1 | - | >10 µg/mL
CC(C)(C)Nc1cccnc1N1CCN(C(=O)c2cc3ccccc3[nH]2)CC1 | - | <100 µM
CCNc1cccnc1N1CCCN(C(=O)c2cc3cc(F)ccc3[nH]2)CC1 | - | <100 µM
Cn1cnc(CNC(=O)c2[nH]c3ccc(Cl)cc3c2S(=O)(=O)c2ccccc2)c1 | - | 0.003–0.035 µM
CCNc1cccnc1N1CCN(Cc2cc(C)c(OC)c(C)c2)CC1 | - | <100 µM
Oc1cc(O)c2c(c1)O[C@H](c1ccc(O)c(O)c1)[C@H](O)[C@H]2c1c(O)cc(O)c2c1O[C@H](c1ccc(O)c(O)c1)[C@H](O)[C@H]2c1c(O)cc(O)c2c1O[C@H](c1ccc(O)c(O)c1)[C@H](O)C2 | - | >20 µg/mL
CCCCCCCCC(OC(C)=O)C(=O)O[C@H]1CC(C)(C)[C@@H]2CC=C(C=O)C3[C@@H](O)OC(=O)[C@@]32[C@H]1O | - | >197 µM
CCc1cc(CCc2nc3ccccc3o2)c(=O)[nH]c1C | RT-K103N | 0.6201 µM
O=C(O[C@@H]1[C@@H](c2c(O)cc(O)c3c2O[C@H](c2ccc(O)c(O)c2)[C@H](OC(=O)c2cc(O)c(O)c(O)c2)C3)c2c(O)cc(O)cc2O[C@@H]1c1ccc(O)c(O)c1)c1cc(O)c(O)c(O)c1 | - | >20 µg/mL
CC(C)(C)c1csc(NC(=O)NCCc2ccccc2)n1 | - | >10 µg/mL
CCNc1cccnc1N1CCN(C(=O)c2cc3cc(OCc4ccccc4)ccc3[nH]2)CC1 | - | <100 µM
Cc1nc(NC(=O)NCCc2ccccc2)sc1C | - | >10 µg/mL
O=C(NCc1cccc(O)c1)c1[nH]c2ccc(Cl)cc2c1Sc1ccccc1 | - | 0.003–0.035 µM
CC(C)Nc1cccnc1N1CCN(C(=O)c2cc3ccc(F)cc3[nH]2)CC1 | - | <100 µM
O=C(O)C1=C[C@@H](O)[C@@H](O)[C@H](OC(=O)c2cc(O)c(O)c(OC(=O)c3cc(O)c(O)c(O)c3)c2)C1 | - | >20 µg/mL
NC(=O)c1[nH]c2ccc(Cl)cc2c1S(=O)c1ccccc1 | - | 0.003–0.035 µM
CN(C)c1nc(N)nc2c1ncn2[C@H]1C[C@H](N=[N+]=[N-])[C@@H](CO)O1 | L74V | >50 µM
CC(C)Nc1cccnc1N1CCN(C(=O)c2cc3cc(F)ccc3[nH]2)CC1 | - | <100 µM
O=C(NCCc1ccccc1)Nc1nncs1 | - | >10 µg/mL
CC(C)=CCC/C(C)=C/CC/C(C)=C/CC/C(C)=C/CC/C(C)=C/CC/C(C)=C/Cc1cc(O)ccc1O | - | 2.7–2.8 µM
CC1(C)CC[C@]2(C(=O)O[C@@H]3O[C@H](CO)[C@@H](O)[C@H](O)[C@H]3O)CC[C@]3(C)C(=CCC4[C@@]5(C)C[C@@H](O)[C@@H]6OC(=O)c7cc(O)c(O)c(O)c7-c7c(cc(O)c(O)c7O)C(=O)OC[C@@]6(CO)C5CC[C@]43C)C2C1 | - | >20 µg/mL
CCNc1cccnc1N1CCN(Cc2ccc(OC)cc2)CC1 | - | >100 µM
O=C(NCCc1ccccc1)Nc1ccn[nH]1 | - | >10 µg/mL
O=C(NCCO)c1[nH]c2ccc(Cl)cc2c1Sc1ccccc1 | - | 0.003–0.035 µM
CCNc1cccnc1N1CCN(Cc2cc(C)c(SC)c(C)c2)CC1 | - | >100 µM
O=C(NCCc1ccccc1)Nc1ccccc1Cl | - | <10 µg/mL
Oc1cc(O)c2c(c1)O[C@H](c1ccc(O)c(O)c1)[C@H](O)[C@H]2c1c(O)cc(O)c2c1O[C@H](c1ccc(O)c(O)c1)[C@H](O)[C@H]2c1c(O)cc(O)c2c1O[C@H](c1ccc(O)c(O)c1)[C@H](O)[C@H]2c1c(O)cc(O)c2c1O[C@H](c1ccc(O)c(O)c1)[C@H](O)C2 | - | >20 µg/mL
CC(C)Nc1cccnc1N(C)CCCCCCN(C)C(=O)c1cc2ccccc2[nH]1 | - | <100 µM
O=C(O[C@@H]1O[C@H](CO)[C@@H](O)[C@H](O)[C@H]1O)c1cc(O)c(O)c(O)c1 | - | >20 µg/mL
CC(C)=CCN1Cc2cccc3[nH]c(=S)n(c23)C[C@@H]1C | RT-Y181I | 60.3 µM
O=C(NC1CCC1)c1[nH]c2ccc(Cl)cc2c1S(=O)(=O)c1ccccc1 | - | 0.003–0.035 µM

4 of the rows above, restated:

structure	changes	value
CC1(C)C[C@H](O)[C@H](O)[C@]23C(=O)O[C@H](O)[C@H]2C(C=O)=CC[C@@H]13	-	140 µM
Oc1cc(O)c2c(c1)O[C@H](c1ccc(O)c(O)c1)[C@H](O)C2c1c(O)cc(O)c2c1O[C@H](c1ccc(O)c(O)c1)[C@H](O)C2c1c(O)cc(O)c2c1O[C@@]1(c3ccc(O)c(O)c3)Oc3cc(O)c4c(c3[C@@H]2[C@H]1O)O[C@H](c1ccc(O)c(O)c1)[C@H](O)C4	-	>20 µg/mL
CC(C)(C)Nc1cccnc1N1CCN(C(=O)c2cc3ccccc3[nH]2)CC1	-	<100 µM
CCNc1cccnc1N1CCN(Cc2ccc(OC)cc2)CC1	-	>100 µM

ICn is the concentration giving n% inhibition. a–b is a range or a potency band. Lines come from different laboratories, so protocols vary.